Measured values from several laboratories, pooled; numbers as filed in NIAID ChemDB.

Shared fields: tests in culture; agent: Human cytomegalovirus

ECn: concentration that inhibits the pathogen or its effect by n%. Conditions beyond the fields shown may differ between rows.

Cc1cc(C)cc(Cn2c(=S)ccn(Cc3cccs3)c2=O)c1 ; strain or isolate: AD169 ; endpoint: EC50 ; result: 10 µM
C[C@H]1O[C@@H](n2c(Cl)nc3cc(Cl)c(Cl)cc32)[C@H](O)C1O ; method: plaque count ; strain or isolate: TOWNE ; cells: HFF ; endpoint: EC50 ; result: 0.58 µM
C=CCn1ccc(=S)n(Cc2cc(C)cc(C)c2)c1=O ; strain or isolate: AD169 ; endpoint: EC50 ; result: 28 µM
Nc1nc2c(ncn2COC(CO)CO)c(=O)[nH]1 ; method: virus yield ; strain or isolate: TOWNE ; endpoint: EC50 ; result: <1.4 µM
Cc1cc(C)cc(Cn2c(=O)ccn(Cc3ccccc3)c2=S)c1 ; strain or isolate: AD169 ; endpoint: EC50 ; result: 12 µM
Nc1nc(-c2ccc(NC(=O)[C@@H]3CCCN3C(=O)c3ccccc3)cc2)cs1 ; method: ELISA ; strain or isolate: AD169 ; cells: HS68 ; endpoint: EC50 ; result: >33 µM
[N-]=[N+]=N[C@H]1C[C@H](CO)S[C@@H]1n1cnc2c(=O)[nH]cnc21 ; endpoint: EC50 ; result: <100 µg/mL
O=C(NCc1ccc(Cl)cc1)c1cn2c3c(cc(CN4CCOCC4)cc3c1=O)OC(c1cccnc1)C2 ; method: plaque count ; strain or isolate: C8805/37-1-1 (ganciclovir-resistant) ; cells: HFF ; endpoint: EC50 ; result: 3.9 µM
CCCCCCCCc1cc2cn(C3CCCC3)c(=O)nc2o1 ; method: plaque count ; strain or isolate: AD169 ; cells: HEL ; endpoint: EC50 ; result: >20 µM
CSCCn1ccc(=O)n(Cc2cc(C)cc(C)c2)c1=O ; strain or isolate: AD169 ; endpoint: EC50 ; result: >160 µM
CCCCCCCCc1cc2cnc(OCCC(C)C)nc2o1 ; method: plaque count ; strain or isolate: DAVIS ; cells: HEL ; endpoint: EC50 ; result: 20 µM
Nc1ncnc2c1ncn2C[C@H]1COP(=O)(O)CO1 ; method: plaque count ; strain or isolate: AD169 ; cells: HEL ; endpoint: EC50 ; result: 0.23 µM
CCCCCCc1cc2cn(CCC(C)C)c(=O)nc2o1 ; method: plaque count ; strain or isolate: AD169 ; cells: HEL ; endpoint: EC50 ; result: >50 µM
Cc1ccn2c(CSCc3ccccc3)c(-c3cccnc3)nc2c1 ; method: cytopathic effect ; strain or isolate: AD169 ; cells: HEL ; endpoint: EC50 ; result: 10 µg/mL
CCCCCCCc1cc2cn(CCC(C)C)c(=O)nc2o1 ; method: plaque count ; strain or isolate: AD169 ; cells: HEL ; endpoint: EC50 ; result: 20 µM
CC(=O)NS(=O)(=O)c1cc(C)c(NC(=O)CN2C(=O)c3ccccc3S2(=O)=O)cc1C ; method: plaque count ; strain or isolate: AD169 ; cells: HEL ; endpoint: EC50 ; result: >100 µM
CN(C)c1cccc2c(S(=O)(=O)Nc3ccc(NC(=O)C(C)(C)CO)cc3)cccc12 ; method: cytopathic effect ; strain or isolate: DAVIS ; cells: Human embryonic lung fibroblasts ; endpoint: EC50 ; result: 0.3 µM
O=C(NCc1ccc(Cl)cc1)c1c[nH]c2ccc(C#CCO)cc2c1=O ; method: plaque count ; strain or isolate: GRU ; endpoint: EC50 ; result: 0.8 µM
CN(C)c1cccc2c(S(=O)(=O)Nc3ccc(NC(=O)C(C)(C)C(=O)O)cc3)cccc12 ; method: cytopathic effect ; strain or isolate: DAVIS ; cells: Human embryonic lung fibroblasts ; endpoint: EC50 ; result: 47 µM
CCCCCCCCCCCCCCOCCCOP(=O)(O)CO[C@H](CO)Cn1ccc(N)nc1=O ; method: plaque count ; strain or isolate: AD169 ; cells: HFF ; endpoint: EC50 ; result: 0.002 µM
Cc1cn([C@H]2S[C@H](CO)C[C@H]2N=[N+]=[N-])c(=O)[nH]c1=O ; endpoint: EC50 ; result: <100 µg/mL
CCCCCCCCCCCCCCCCCCCCCCOP1(=O)CO[C@@H](Cn2ccc(N)nc2=O)CO1 ; method: plaque count ; strain or isolate: AD169 ; cells: HFF ; endpoint: EC50 ; result: 0.041 µM
Nc1ccn(C[C@@H](CO)OCP(=O)(O)O)c(=O)n1 ; method: flow cytometry ; strain or isolate: AD169 ; cells: HEL ; endpoint: EC50 ; result: 0.72 µM
Cc1ccn2c(CSCc3ccccc3)c(-c3ccccn3)nc2c1 ; method: cytopathic effect ; strain or isolate: DAVIS ; cells: HEL ; endpoint: EC50 ; result: 0.95 µg/mL
Nc1nc2c(ncn2/C=C2/CC2(CO)CO)c(=O)[nH]1 ; method: plaque count ; strain or isolate: C8914-6 ganciclovir- and foscarnet-resistant ; cells: HFF ; endpoint: EC50 ; result: 9.9 µM
CC(C)(C)c1nc2ccccn2c1NC(=O)Nc1ccccc1 ; method: cytopathic effect ; strain or isolate: AD169 ; cells: HEL ; endpoint: EC50 ; result: >50 µg/mL
CCCCCCc1cc2cn(C3CCCO3)c(=O)nc2o1 ; method: plaque count ; strain or isolate: DAVIS ; cells: HEL ; endpoint: EC50 ; result: >50 µM
C[C@H](c1ccccc1)N(CC(=O)Nc1ccc(-c2csc(N)n2)cc1)C(=O)Cc1ccncc1 ; method: plaque count / crystal violet ; strain or isolate: AD169 ; cells: HS68 ; endpoint: EC50 ; result: 49 µM
Cc1ccn2c(CSCc3ccccc3)c(C(C)(C)C)nc2c1 ; method: cytopathic effect ; strain or isolate: DAVIS ; cells: HEL ; endpoint: EC50 ; result: 1.2 µg/mL
Cc1cc(C)cc(Cn2c(=S)ccn(Cc3ccncc3)c2=O)c1 ; strain or isolate: AD169 ; endpoint: EC50 ; result: >15 µM
NC1=NCCN1CC(=O)O ; method: plaque count ; strain or isolate: AD169 ; cells: MRC-5 ; endpoint: EC50 ; result: 2300 µM
COc1ccc(/C=N/NC(=O)c2ccccc2S(=O)(=O)NC(C)C)cc1 ; method: plaque count ; strain or isolate: DAVIS ; cells: HEL ; endpoint: EC50 ; result: >100 µM
Cc1ccn2c(CSCc3ccccc3)c(C3CC3C)nc2c1 ; method: cytopathic effect ; strain or isolate: DAVIS ; cells: HEL ; endpoint: EC50 ; result: 5 µg/mL
Nc1nc2c(ncn2COC(CO)CCP(=O)(O)O)c(=O)[nH]1 ; method: plaque count ; strain or isolate: DAVIS ; cells: MRC-5 ; endpoint: EC50 ; result: 5.8 µM
Nc1nc2c(ncn2COC(CO)CO)c(=O)[nH]1 ; method: plaque count ; strain or isolate: DAVIS ; cells: HEL ; endpoint: EC50 ; result: 15.7 µM
CCCCCCCCc1cc2cn(CCC(C)C)c(=O)nc2o1 ; method: plaque count ; strain or isolate: DAVIS ; cells: HEL ; endpoint: EC50 ; result: >200 µM
Cc1ccn2c(CSCCc3ccccc3)c(-c3cccs3)nc2c1 ; method: cytopathic effect ; strain or isolate: DAVIS ; cells: HEL ; endpoint: EC50 ; result: 1.6 µg/mL
[N-]=[N+]=N[C@H]1C[C@H](CO)S[C@@H]1n1ccc(=O)[nH]c1=O ; endpoint: EC50 ; result: <100 µg/mL
CC(C)(C)c1nc2ccccn2c1NC(=S)Nc1ccccc1 ; method: cytopathic effect ; strain or isolate: AD169 ; cells: HEL ; endpoint: EC50 ; result: >50 µg/mL
C/C(=N/Nc1nc(-c2ccc(C)cc2)cs1)c1ccc(NC(=O)CN2C(=O)c3ccccc3S2(=O)=O)cc1 ; method: plaque count ; strain or isolate: AD169 ; cells: HEL ; endpoint: EC50 ; result: 20 µM
Nc1ncnc2c1ncn2C[C@@H](CO)OCP(=O)(O)O ; method: plaque count ; strain or isolate: AD169 ; cells: HEL ; endpoint: EC50 ; result: 0.28 µM
Cn1cc(C(=O)NCc2ccc(Cl)cc2)c(=O)c2cc(CN3CCOCC3)ccc21 ; method: plaque count ; strain or isolate: C8706/13-1-1 (ganciclovir-resistant) ; cells: HFF ; endpoint: EC50 ; result: 1.7 µM
Cc1cc(C)cc(Cn2c(SCC#N)nccc2=S)c1 ; strain or isolate: AD169 ; endpoint: EC50 ; result: >1.7 µM
CCCCCCCC/C=C\CCCCCCCOCCOP1(=O)CO[C@@H](Cn2ccc(N)nc2=O)CO1 ; method: plaque count ; strain or isolate: AD169 ; cells: HFF ; endpoint: EC50 ; result: 0.0015 µM
Nc1ncnc2c1ncn2C=C1CC1CO ; method: plaque count ; strain or isolate: VR6264 (ganciclovir-resistant) ; endpoint: EC90 ; result: 2.1 µM
Nc1nc2c(ncn2COC(CO)COP(=O)(O)O)c(=O)[nH]1 ; method: plaque count ; strain or isolate: AD169 ; cells: MRC-5 ; endpoint: EC50 ; result: 11.7 µM
Nc1nc(-c2ccc(NC(=O)CCN(C(=O)c3cccnc3)C3CCc4ccccc43)cc2)cs1 ; method: ELISA ; strain or isolate: AD169 ; cells: HS68 ; endpoint: EC50 ; result: 6.5 µM
CN(C)c1cccc2c(S(=O)(=O)Nc3ccc(NC(=O)C(C)(C)CO)cc3)cccc12 ; method: plaque count ; strain or isolate: DAVIS ; endpoint: EC50 ; result: 0.52 µM
CCCCCCCCCCCCCCCCCCCCCCCCOP(=O)(O)CO[C@H](CO)Cn1ccc(N)nc1=O ; method: plaque count ; strain or isolate: AD169 ; cells: HFF ; endpoint: EC50 ; result: 0.06 µM
OC[C@H]1O[C@@H](n2c(Br)nc3cc(Cl)c(Cl)cc32)[C@H](O)[C@@H]1O ; method: plaque count ; strain or isolate: Isolate C4 mutations D344E + Q204R ; cells: HFF ; endpoint: EC50 ; result: 28 µM
CC(C)NS(=O)(=O)c1ccccc1C(=O)N/N=C/c1ccc(-c2cccs2)cc1 ; method: plaque count ; strain or isolate: AD169 ; cells: HEL ; endpoint: EC50 ; result: >100 µM
COCCOCn1cc(C(N)=S)c2c(N)ncnc21 ; method: plaque count ; strain or isolate: TOWNE ; cells: HFF ; endpoint: EC50 ; result: 1 µM
CCCCN(CC)C(=O)Nc1ccc(-c2csc(NOC(=O)OC(C)(C)C)n2)cc1 ; method: plaque count / crystal violet ; strain or isolate: AD169 ; cells: HS68 ; endpoint: EC50 ; result: 2 µM
Cc1cc(C)cc(Cn2c(=S)ccn(Cc3ccsc3)c2=O)c1 ; strain or isolate: AD169 ; endpoint: EC50 ; result: 9.5 µM
CC(C)(C)C(=O)Nc1ccc(NS(=O)(=O)c2cccc3ccccc23)cc1 ; method: cytopathic effect ; strain or isolate: DAVIS ; cells: Human embryonic lung fibroblasts ; endpoint: EC50 ; result: 0.29 µM
CCCCCCCCCCCCCCCCCCCCCCCCOP1(=O)CO[C@@H](Cn2ccc(N)nc2=O)CO1 ; method: plaque count ; strain or isolate: AD169 ; cells: HFF ; endpoint: EC50 ; result: 0.29 µM
CCCCCCc1cc2cnc(OC3CCCC3)nc2o1 ; method: plaque count ; strain or isolate: AD169 ; cells: HEL ; endpoint: EC50 ; result: 14 µM
[N-]=[N+]=N[C@H]1C[C@H](CO)S[C@H]1n1cnc2c(=O)[nH]cnc21 ; endpoint: EC50 ; result: <100 µg/mL
Cc1ccc(/C=N/NC(=O)c2ccccc2S(=O)(=O)NC(C)C)cc1 ; method: plaque count ; strain or isolate: DAVIS ; cells: HEL ; endpoint: EC50 ; result: >100 µM

8 of the rows above, restated:

compound	method	strain or isolate	cells	endpoint	result
CCCCCCCCc1cc2cnc(OCCC(C)C)nc2o1	plaque count	DAVIS	HEL	EC50	20 µM
Nc1nc2c(ncn2/C=C2/CC2(CO)CO)c(=O)[nH]1	plaque count	C8914-6 ganciclovir- and foscarnet-resistant	HFF	EC50	9.9 µM
CN(C)c1cccc2c(S(=O)(=O)Nc3ccc(NC(=O)C(C)(C)CO)cc3)cccc12	cytopathic effect	DAVIS	Human embryonic lung fibroblasts	EC50	0.3 µM
NC1=NCCN1CC(=O)O	plaque count	AD169	MRC-5	EC50	2300 µM
CCCCCCCC/C=C\CCCCCCCOCCOP1(=O)CO[C@@H](Cn2ccc(N)nc2=O)CO1	plaque count	AD169	HFF	EC50	0.0015 µM
CCCCCCCCCCCCCCOCCCOP(=O)(O)CO[C@H](CO)Cn1ccc(N)nc1=O	plaque count	AD169	HFF	EC50	0.002 µM
CC(C)(C)C(=O)Nc1ccc(NS(=O)(=O)c2cccc3ccccc23)cc1	cytopathic effect	DAVIS	Human embryonic lung fibroblasts	EC50	0.29 µM
C[C@H]1O[C@@H](n2c(Cl)nc3cc(Cl)c(Cl)cc32)[C@H](O)C1O	plaque count	TOWNE	HFF	EC50	0.58 µM